Data from patent US20230348569A1.
Like-named read-outs stand apart in the source and are kept apart here.

B1: mAb10932 (antibody)
heavy: EVQLVESGGGLVQSGGSLRLSCAASGLTVSSNYMSWVRQAPGKGLEWVSVIYSGGSTFYSDSVKGRFTISRHNSKNTLYLQMNSLRAEDTAVYYCARARGDAFDIWGQGTMVTVSSASTKGPSVFPLAPSSKSTSGGTAALGCLVKDYFPEPVTVSWNSGALTSGVHTFPAVLQSSGLYSLSSVVTVPSSSLGTQTYICNVNHKPSNTKVDKKV[human IgG1 Fc left out here]
light: DIQMTQSPSSLSASVGDRVTITCQASQGISNYLNWYQQKPGKAPKLLISDASNLETGVPSRFSGSGSGTDFTFTISSLQPEDIATYYCQQYDNLRFFTFGPGTKVDIKRTVAAPSVFIFPPSDEQLKSGTASVVCLLNNFYPREAKVQWKVDNALQSGNSQESVTEQDSKDSTYSLSSTLTLSKADYEKHKVYACEVTHQGLSSPVTKSFNRGEC
B2: mAb10913 (antibody)
heavy: EVQLVESGGGLVQPGGSLRLSCAASGFTFRNYEMNWVRQAPGKGLEWVSYITSSGSTMYYADSVKGRFTISRDNAKNSLYLQMNSLRAEDTAVYYCARDGFYYYYAMDVWGQGTTVTVSSASTKGPSVFPLAPSSKSTSGGTAALGCLVKDYFPEPVTVSWNSGALTSGVHTFPAVLQSSGLYSLSSVVTVPSSSLGTQTYICNVNHKPSNTKVDKKV[human IgG1 Fc left out here]
light: QSVLTQPPSVSAAPGQKVTISCSGSSSNIGNNYVSWYQQLPGTAPKLLIYDNNKRPSGIPDRFSGSKSGTSATLGITGLQTGDEADYYCGTWDSSLSVGRVFGTGTKVTVLGQPKAAPSVTLFPPSSEELQANKATLVCLISDFYPGAVTVAWKADSSPVKAGVETTTPSKQSNNKYAASSYLSLTPEQWKSHRSYSCQVTHEGSTVEKTVAPTECS
B3: mAb10914 (antibody)
heavy: EVQLVESGGGLVQPGGSLRLSCAASGLIVSRNYMIWVRQAPGKGLEWVSVIYSGGSTFYADSVKGRFTISRHNSKNTLYLQMNSLRAEDTAVYYCARDLGTGGMDVWGQGTTVTVSSASTKGPSVFPLAPSSKSTSGGTAALGCLVKDYFPEPVTVSWNSGALTSGVHTFPAVLQSSGLYSLSSVVTVPSSSLGTQTYICNVNHKPSNTKVDKKV[human IgG1 Fc left out here]
light: DIQLTQSPSFLSASVGDRVTITCWASQGISSYLAWYQQKPGKAPKLLIYAASTLQSGVPSRFSGSGSGTEFTLTISSLQPEDFATYYCQQLNSYPLTFGGGTKVEIKRTVAAPSVFIFPPSDEQLKSGTASVVCLLNNFYPREAKVQWKVDNALQSGNSQESVTEQDSKDSTYSLSSTLTLSKADYEKHKVYACEVTHQGLSSPVTKSFNRGEC
B4: mAb11002 (antibody)
heavy: EVQLVESGGGLVQPGGSLRLSCAASGFTVSSNYMSWVRQAPGKGLEWVSVIYSGGSTFYADSVKGRFTISRHNSKNTLYLQMNSLRAEDTAVYYCAREGYGMDVWGQGTTVTVSSASTKGPSVFPLAPSSKSTSGGTAALGCLVKDYFPEPVTVSWNSGALTSGVHTFPAVLQSSGLYSLSSVVTVPSSSLGTQTYICNVNHKPSNTKVDKKV[human IgG1 Fc left out here]
light: [about 100 residues left out here][about 120 residues left out here]

Tests used:
Conditions in all cases: remark: other sources report otherwise
[1] = target: T1, SARS-COV-2-S RBD extracellular domain expressed with a C-terminal myc-myc-hexahistidine (SARS-COV-2 RBD-MMH) (SARS-CoV-2)
[2] = target: T1, SARS-COV-2-S RBD extracellular domain …; remark: listed apart in the source
[3] = target: SARS-CoV-2 Spike Protein (RBD)([…]).mmH (SARS-CoV-2); experiment: Luminex bead assay, supernatant
[4] = target: SARS-CoV-2 Spike Protein (RBD)([…]).mmH (SARS-CoV-2); experiment: Luminex bead assay, supernatant; remark: listed apart in the source

Binder | t½ [1] | t½ [2] | Binding signal (MFI) [3] | Binding signal (MFI) [4]
B1 | 5.5 min |  |  | 
B2 | 0.3 min |  |  | 
B3 | 1.2 min | 1 min |  | 
B4 |  |  | 10200 MFI | 11600 MFI
